Results of unrelated studies side by side (data: NIAID ChemDB).

Shared fields: whole-cell or culture tests; agent: Candida albicans; read by: agar diffusion; endpoint: zone

Conditions beyond the fields shown may differ between rows. Zones are inhibition diameters on agar. An empty or dashed field is not shown.

structure	strain	dose	result
O=C1CC(c2ccccc2)CC2=C1C(c1ccc(C3C4=C(CC(c5ccccc5)CC4=O)OC4=C3C(=O)CC(c3ccccc3)C4)cc1)C1=C(CC(c3ccccc3)CC1=O)O2	ATCC 10231	140 µg/disc	8 mm
Cc1ccc(C(=O)OC(CCn2ccnc2)c2ccccc2)cc1	-	1000 µg	16 mm
COc1ccc(/C=c2\c(=O)[nH][nH]\c2=C2/C(=O)c3ccccc3N(C)C2=O)cc1	ATCC 10231	1 mg/mL	9 mm
CS(=O)(=O)c1nc(N)c(C#N)c(-c2ccccc2)n1	MTCC 227	50 µg/mL	18 mm
C[C@H]1[C@H](O)[C@@H](C)/C=C/C=C/C=C/C=C/C=C/C=C/C=C/[C@H](O[C@@H]2O[C@H](C)[C@@H](O)[C@H](N)[C@@H]2O)C[C@@H]2O[C@](O)(C[C@@H](O)C[C@@H](O)CC[C@H](O)[C@@H](O)C[C@@H](O)CC(=O)O[C@H]1C)C[C@H](O)[C@H]2C(=O)O	-	100 µM	19 mm
COc1cc2c(cc1-c1cc(-c3ccc([N+](=O)[O-])cc3)nc(N)n1)CCC(C)(C)O2	-	100 µg/mL	21 mm
CS(=O)(=O)C1=NC(c2cccc3cc4ccccc4cc23)C(C#N)=C(N)N1	MTCC 227	50 µg/mL	18 mm
O=C(OC(CCn1ccnc1)c1ccccc1)c1ccco1	-	1000 µg	17 mm
Oc1ccccc1C(/C=C/c1ccccc1)=NCCCn1ccnc1.[Cl][Ni]	-	100 µg/mL	19 mm
COc1ccc(CN(CC(O)C[N+](C)(C)C)[C@@H]2[C@@H](O)[C@H](O[C@@H]3O[C@H](COCC(=O)O)[C@@H](O[C@@H]4C[C@H](COCC(=O)O)[C@@H](C)[C@H](O)[C@H]4N(Cc4ccc(OC)cc4)CC(O)C[N+](C)(C)C)[C@H](O)[C@H]3N(Cc3ccc(OC)cc3)CC(O)C[N+](C)(C)C)[C@@H](COCC(=O)O)O[C@H]2C)cc1	RCMB 05031	1 mg/mL	13 mm
COc1c(CO)c(O)cc2c1C(=O)c1ccccc1C2=O	-	13.3 µg/disc	0 mm
Cc1ccc(/C=C/C(=NCCCn2ccnc2)c2ccccc2O)cc1	-	100 µg/mL	17 mm
CC1(C)CCC2=C(C1=O)C(c1ccc(C3C4=C(CCC(C)(C)C4=O)OC4=C3C(=O)C(C)(C)CC4)cc1)C1=C(CCC(C)(C)C1=O)O2	ATCC 10231	20 µg/disc	0 mm
C[C@@H]1[C@@H](COCC(=O)O)C[C@@H](O[C@H]2[C@H](O)[C@@H](N(Cc3ccc(N(C)C)cc3)CC(O)C[N+](C)(C)C)[C@H](O[C@H]3[C@H](O)[C@@H](N(Cc4ccc(N(C)C)cc4)CC(O)C[N+](C)(C)C)[C@H](C)O[C@@H]3COCC(=O)O)O[C@@H]2COCC(=O)O)[C@H](N(Cc2ccc(N(C)C)cc2)CC(O)C[N+](C)(C)C)[C@H]1O	RCMB 05031	1 mg/mL	20.1 mm
O=C(OC(CCn1ccnc1)c1ccc(Cl)cc1)c1ccc(Cl)cc1	-	1000 µg	16 mm
CSC1=NC(c2cccc3cc4ccccc4cc23)C(C#N)=C(N)N1	MTCC 227	100 µg/mL	19 mm
Cc1cc(=O)n(-c2ccc(N=Cc3c(-c4c(O)c5ccccc5n(C)c4=O)[nH][nH]c3=O)cc2)n1C	ATCC 10231	1 mg/mL	10 mm
CS(=O)(=O)c1nc(N)c(C#N)c(-c2ccccc2Cl)n1	MTCC 227	100 µg/mL	20 mm
Cc1cc(O)c(C(C)C)cc1Cl	AI	100 µg/mL	30 mm
COc1ccc(/C=N/n2c(C34CC5CC(CC(C5)C3)C4)n[nH]c2=S)cc1OC	IFO 3007	200 µg/disc	<10 mm
COc1cc2c(cc1-c1cc(-c3ccc(N(C)C)cc3)nc(N)n1)CCC(C)(C)O2	-	100 µg/mL	16 mm
CC(=O)N1CCN(c2ccc(OC[C@H]3CO[C@](Cn4ccnc4)(c4ccc(Cl)cc4Cl)O3)cc2)CC1	MTCC 227	5 mg/mL	28 mm
COc1ccc(C2CC(=O)C3=C(C2)OC2=C(C(=O)CC(c4ccc(OC)c(OC)c4)C2)C3c2ccc(C3C4=C(CC(c5ccc(OC)c(OC)c5)CC4=O)OC4=C3C(=O)CC(c3ccc(OC)c(OC)c3)C4)cc2)cc1OC	ATCC 10231	20 µg/disc	0 mm
Cn1c(=O)c(-c2[nH][nH]c(=O)c2C=Nc2ccncc2)c(O)c2ccccc21	ATCC 10231	1 mg/mL	17 mm
Oc1ccccc1C(/C=C/c1ccccc1)=NCCCn1ccnc1	-	100 µg/mL	17 mm
CN(C)c1ccc(/C=N/n2c(C34CC5CC(CC(C5)C3)C4)n[nH]c2=S)cc1	IFO 3007	200 µg/disc	<10 mm
O=C(OC(CCn1ccnc1)c1ccccc1)c1cccnc1	-	1000 µg	14 mm
Oc1ccccc1C(/C=C/c1ccccc1)=NCCCn1ccnc1.[Cl][Cu]	-	100 µg/mL	20 mm
O=C1c2ccccc2C(=O)c2c1cc(O[C@@H]1O[C@H](CO[C@@H]3OC[C@@H](O)[C@H](O)[C@H]3O)[C@@H](O)[C@H](O)[C@H]1O)c(CO)c2O	-	13.3 µg/disc	0 mm
CSC1=NC(c2cccc([N+](=O)[O-])c2)C(C#N)=C(N)N1	MTCC 227	25 µg/mL	17 mm
Cn1c(=O)c(-c2[nH][nH]c(=O)c2C=Nc2ccc(Cl)cc2)c(O)c2ccccc21	ATCC 10231	1 mg/mL	22 mm
Clc1ccc(COC(Cn2ccnc2)c2ccc(Cl)cc2Cl)c(Cl)c1	-	100 µg/mL	19 mm
O=C(OC(CCn1ccnc1)c1ccccc1)c1ccc(Cl)s1	-	1000 µg	16 mm
COc1ccccc1/C=N/N=C1/NC(=O)/C(=C\c2coc3ccc(C)cc3c2=O)S1	ATCC 10231	200 µg	0 mm
COc1c(N2CC3CCCNC3C2)c(F)cc2c(=O)c(C(=O)[O-])cn(C3CC3)c12.[Cl][Mn+].c1c[nH]cn1	-	100 µM	0 mm
COc1ccccc1CN(CC(O)C[N+](C)(C)C)[C@@H]1[C@@H](O)[C@H](O[C@@H]2O[C@H](COCC(=O)O)[C@@H](O[C@@H]3C[C@H](COCC(=O)O)[C@@H](C)[C@H](O)[C@H]3N(Cc3ccccc3OC)CC(O)C[N+](C)(C)C)[C@H](O)[C@H]2N(Cc2ccccc2OC)CC(O)C[N+](C)(C)C)[C@@H](COCC(=O)O)O[C@H]1C	RCMB 05031	1 mg/mL	15.1 mm
COc1ccccc1N1CCN(Cn2nc(C34CC5CC(CC(C5)C3)C4)n(/N=C/c3c(Cl)cccc3Cl)c2=S)CC1	IFO 3007	200 µg/disc	<10 mm
O=C1CS/C(=N/N=C/c2csc(-c3ccccc3)n2)N1	ATCC 10231	200 µg	42 mm
CCCCOCc1c(O)cc2c(c1O)C(=O)c1ccccc1C2=O	-	13.3 µg/disc	<6.2 mm
O=c1oc2ccccc2cc1-c1nnc(/N=C/c2ccc(F)cc2)o1	ATCC 10231	100 µg/mL	10 mm
O=C1N/C(=N/N=C/c2c(Cl)cccc2Cl)S/C1=C/c1coc2ccc(F)cc2c1=O	ATCC 10231	200 µg	0 mm
COc1cc2c(cc1-c1cc(-c3ccc(F)cc3)nc(N)n1)CCC(C)(C)O2	-	100 µg/mL	18 mm
COc1ccc(C2N=C(SC)NC(N)=C2C#N)cc1	MTCC 227	100 µg/mL	20 mm
O=c1oc2ccccc2cc1-c1nnc(/N=C/c2ccccc2O)o1	ATCC 10231	100 µg/mL	10 mm
COc1cc2c(cc1-c1cc(-c3ccc(C)cc3)nc(N)n1)CCC(C)(C)O2	-	100 µg/mL	11 mm
Clc1ccccc1C(c1ccccc1)(c1ccccc1)n1ccnc1	-	0.1 µg/mL	20 mm
O=c1oc2ccccc2cc1-c1nnc(/N=C/c2cccc(F)c2)o1	ATCC 10231	100 µg/mL	11 mm
COc1ccc(C(CCn2ccnc2)OC(=O)c2ccc(Cl)cc2)cc1	-	1000 µg	16 mm
Cc1ccccc1N1CCN(CC(=O)N2c3ccccc3Sc3ccccc32)CC1	-	0.1 µg/mL	0 mm
O=C1CS/C(=N/N=C/c2ccc(Cl)cc2Cl)N1	ATCC 10231	200 µg	35 mm
CSC1=NC(c2ccccc2O)C(C#N)=C(N)N1	MTCC 227	100 µg/mL	19 mm
CC1(C)C=C2C3CCC4[C@@]5(C)CC[C@H](OC(=O)/C=C/c6ccc(O)cc6)C(C)(C)C5CC[C@@]4(C)[C@]3(C)CC[C@@]2(C)CC1	UPCC 2168	30 mg/disc	12 mm
O=c1oc2ccccc2cc1-c1nnc(/N=C/c2cccc(Cl)c2)o1	ATCC 10231	100 µg/mL	14 mm

3 of the rows above, restated:

structure,strain,dose,result
Oc1ccccc1C(/C=C/c1ccccc1)=NCCCn1ccnc1.[Cl][Ni],-,100 µg/mL,19 mm
O=c1oc2ccccc2cc1-c1nnc(/N=C/c2cccc(F)c2)o1,ATCC 10231,100 µg/mL,11 mm
CSC1=NC(c2cccc3cc4ccccc4cc23)C(C#N)=C(N)N1,MTCC 227,100 µg/mL,19 mm